A mixed list of measured activities; the numbers were collected in NIAID ChemDB.

Common to all: whole-cell or culture tests; species: Aspergillus fumigatus; endpoint: MIC

An empty or dashed field is not shown. Conditions beyond the fields shown may differ between rows.

| SMILES | strain or isolate | result |
|---|---|---|
| C[C@@H](n1ccn(-c2ccc(C(F)(F)F)cc2)c1=O)C(O)(Cn1cncn1)c1ccc(F)cc1F | TIMM1728 | 4 µg/mL |
| CCCCC/C=C/C=N\N(C)Cc1cccc2ccccc12 | - | >64 µg/mL |
| COc1cc(NS(=O)(=O)c2ccc(N)cc2)nc(OC)n1 | IFM 48051 | 128 µg/mL |
| C[C@@H](N1CCN(c2ccc(OCC(F)(F)C(F)F)cc2)C1=O)C(O)(Cn1cncn1)c1ccc(F)cc1F | TIMM1728 | 0.5 µg/mL |
| COc1ccc(NS(=O)(=O)c2ccc(N)cc2)nn1 | IFM 41362 | ≥256 µg/mL |
| CC1C=C(c2ccc(Br)c3ccccc23)C(=O)O1 | 231 | 62.5 µM |
| C[C@@H](N1CCN(c2ccc(OCC(F)(F)C(F)F)cc2)C1=O)C(O)(Cn1cncn1)c1ccccc1F | 437 | 1 µg/mL |
| CC1C=C(c2ccc(Br)c(Br)c2)C(=O)O1 | 231 | >125 µM |
| C[C@@H](N1CCN(c2ccc(OC(F)(F)C(F)F)cc2)C1=O)C(O)(Cn1cncn1)c1ccc(F)cc1F | IFO6344 | 0.25 µg/mL |
| Cc1nnc(NS(=O)(=O)c2ccc(N)cc2)s1 | IFM 48051 | ≥256 µg/mL |
| CCC1C=C(c2ccc(Cl)cc2)C(=O)O1 | 231 | 125 µM |
| CCC(C)CCCCCCCCC1CC(=O)NCC(=O)N[C@@H](CCCN)C(=O)N[C@@H](C(C)C)C(=O)N1 | IFM41088 | >80 µg/mL |
| CC1C=C(c2ccc(Cl)cc2Cl)C(=O)O1 | 231 | 62.5 µM |
| CC(N1CCN(c2ccc(-n3cnnn3)cc2)C1=O)[C@](O)(Cn1cncn1)c1ccc(F)cc1F | 437 | 0.5 µg/mL |
| CN(Cc1cccc2ccsc12)/N=C\c1ccc2ccccc2c1 | - | >64 µg/mL |
| C[C@@H](n1ncn(-c2ccc(OCC(F)(F)C(F)F)cc2)c1=O)[C@](O)(Cn1cncn1)c1ccc(F)cc1F | 437 | 2 µg/mL |
| CN(Cc1cccc2ccccc12)/N=C\C#CC(C)(C)C | - | >64 µg/mL |
| CC1=CC[C@@H]2[C@H](C1)C2(C)C | ATCC 46645 | 0.16 µg/mL |
| CC1C=C(c2ccc(F)cc2)C(=O)O1 | 231 | >125 µM |
| CN(Cc1cccc2ccsc12)/N=C\c1ccc(Cl)cc1 | - | >64 µg/mL |
| CCCCCC1C=C(c2cccc(Cl)c2)C(=O)O1 | 231 | 62.5 µM |
| CCC(C)CCCCCCC1CC(=O)NCC(=O)N[C@@H](CCCN)C(=O)N[C@@H](C(C)C)C(=O)N1 | IFM4942 | >80 µg/mL |
| COc1cccc(C2=CC(C)OC2=O)c1 | 231 | >125 µM |
| O=C(N/N=C/c1cc([N+](=O)[O-])ccc1O)c1ccc(I)cc1 | Strain 1 | 0.4 µg/mL |
| CCCCCC1C=C(c2ccc(Br)cc2)C(=O)O1 | 231 | >125 µM |
| COc1cc(O)c2c(c1)C(=O)c1c(cc3c(c1O)-c1c(cc(C)c(C(=O)NCC(=O)O)c1O)[C@H](O[C@@H]1O[C@H](C)[C@H](N)[C@H](O[C@@H]4OC[C@@H](O)[C@H](O)[C@H]4O)[C@H]1O)[C@H]3O)C2=O | IAM2530 | 1.6 µg/mL |
| COc1cc(NS(=O)(=O)c2ccc(N)cc2)ncn1 | IFM 53412 | ≥256 µg/mL |
| Cc1ccc(C(C)C)cc1O | ATCC 46645 | 0.16 µg/mL |
| C[C@@H](n1ccn(-c2ccc(OCC(F)(F)C(F)F)cc2)c1=O)C(O)(Cn1cncn1)c1ccccc1F | TIMM1728 | 2 µg/mL |
| C[C@@H](N1CCN(c2ccc(-n3cnnn3)cc2)C1=O)[C@](O)(Cn1cncn1)c1ccc(F)cc1F | TIMM1728 | >64 µg/mL |

Repeating the final 3 entries:

SMILES,strain or isolate,result
Cc1ccc(C(C)C)cc1O,ATCC 46645,0.16 µg/mL
C[C@@H](n1ccn(-c2ccc(OCC(F)(F)C(F)F)cc2)c1=O)C(O)(Cn1cncn1)c1ccccc1F,TIMM1728,2 µg/mL
C[C@@H](N1CCN(c2ccc(-n3cnnn3)cc2)C1=O)[C@](O)(Cn1cncn1)c1ccc(F)cc1F,TIMM1728,>64 µg/mL